Consider 2 sequences from paper PMC10636207.

Where a protein sequence is shown, tags need not be part of it.

For data set [1], the target named is T1, DcuR-His6 (UniProt P0AD02).
T1 sequence (looked up): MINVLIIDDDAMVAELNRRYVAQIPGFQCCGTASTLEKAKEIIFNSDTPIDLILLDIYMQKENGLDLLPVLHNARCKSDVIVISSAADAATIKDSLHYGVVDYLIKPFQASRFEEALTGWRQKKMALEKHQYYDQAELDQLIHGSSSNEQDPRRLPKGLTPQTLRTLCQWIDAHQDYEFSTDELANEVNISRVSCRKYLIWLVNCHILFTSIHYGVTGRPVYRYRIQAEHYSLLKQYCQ
Put plainly: competition with a labelled probe. The note with it: unlabeled DNA 0.5-5 uM against FAM-PLEE1; recombinant protein; residues 1-239; protein details: His6 (pET-28a); probe letters rebuilt from the primers and the genome.

Data set [2] concerns the target T1, DcuR-His6. Put plainly: EMSA. The note with it: 50 nM probe, 0-4 uM DcuR; recombinant protein; residues 1-239; protein details: His6 (pET-28a); label: 5'-FAM; probe letters rebuilt from the primers and the genome. (A gel shift assay detects complexes by their altered migration in electrophoresis.)

Consider “TCCTGGGGATTCACTCGCTTGCCGCCTTCCTGTAACTCGAATTAAGTAGAGTATAGTGAAACGGTTCAGCTTGGTTTTTATTCTGTTTTATTTGTTTATGCAATGAGATCTATCTTATAAAGAGAAACGCTTAACTAAATGGAAATGCAATTATTAAAGTCGTTTGTTAACGAGATGATTTTCTTCTATATCATTGATTTTAAATGGATTTTAAAAATATATGATTTTTTTGTTGACATTTAATGATAATGTATTTTACACATTAGAAAAAAGAGAATAATAACATTTTAAGGTGGTTGTTTGATGAAATAGATGTGTCCTAATTTGATAGATAAACGTTATCTCACATAATTTATATCATTTGATTAATTGTTGGTCCTTCCTGATAAGGTCGCTAATAGCTTAAAATATTAAAGCATGCGGAGATTATTTATTATGA (double strand) [PLEE1 unlabeled]”, for which the binding result in the data set with DcuR-His6 [1] is listed as “binds”. As to “TCCTGGGGATTCACTCGCTTGCCGCCTTCCTGTAACTCGAATTAAGTAGAGTATAGTGAAACGGTTCAGCTTGGTTTTTATTCTGTTTTATTTGTTTATGCAATGAGATCTATCTTATAAAGAGAAACGCTTAACTAAATGGAAATGCAATTATTAAAGTCGTTTGTTAACGAGATGATTTTCTTCTATATCATTGATTTTAAATGGATTTTAAAAATATATGATTTTTTTGTTGACATTTAATGATAATGTATTTTACACATTAGAAAAAAGAGAATAATAACATTTTAAGGTGGTTGTTTGATGAAATAGATGTGTCCTAATTTGATAGATAAACGTTATCTCACATAATTTATATCATTTGATTAATTGTTGGTCCTTCCTGATAAGGTCGCTAATAGCTTAAAATATTAAAGCATGCGGAGATTATTTATTATGA (double strand) [PLEE1]”, in the data set with DcuR-His6 [2], the binding result is reported as “binds”.
